Experimental data reported in patent US20180172709A1.

Target: recombinant Syrian golden hamster proteinase K-sensitive prion protein (residues 23-231) (Syrian golden hamster) (UniProt Q60468)
Test: cell-based or functional assay

PrP-res in brain homogenate from a human variant CJD patient (from UniProt P04156 23-230)
rHaPrP-res^(vCJD)-positive QUIC reactions, 1 fg PrP-res seed, 8 h, 50° C. (of 6 reactions): 1
rHaPrP-res^(vCJD)-positive QUIC reactions, 1 fg PrP-res seed, 18 h, 50° C. (of 6 reactions): 2
rHaPrP-res^(vCJD)-positive QUIC reactions, 100 fg PrP-res seed, 8 h, 50° C. (of 6 reactions): 5
rHaPrP-res^(vCJD)-positive QUIC reactions, 100 fg PrP-res seed, 18 h, 50° C. (of 6 reactions): 6
